The text below walks through data of patent US8067379B2, “Sulfur compounds as inhibitors of hepatitis C virus NS3 serine protease” (Schering Corporation, priority 2004, dated 2011).

Protein sequences, listed by entry. Tags and fused reporters are not part of them. Residues count along the entry.
UniProt P27958, 1027-1657 limits assumed: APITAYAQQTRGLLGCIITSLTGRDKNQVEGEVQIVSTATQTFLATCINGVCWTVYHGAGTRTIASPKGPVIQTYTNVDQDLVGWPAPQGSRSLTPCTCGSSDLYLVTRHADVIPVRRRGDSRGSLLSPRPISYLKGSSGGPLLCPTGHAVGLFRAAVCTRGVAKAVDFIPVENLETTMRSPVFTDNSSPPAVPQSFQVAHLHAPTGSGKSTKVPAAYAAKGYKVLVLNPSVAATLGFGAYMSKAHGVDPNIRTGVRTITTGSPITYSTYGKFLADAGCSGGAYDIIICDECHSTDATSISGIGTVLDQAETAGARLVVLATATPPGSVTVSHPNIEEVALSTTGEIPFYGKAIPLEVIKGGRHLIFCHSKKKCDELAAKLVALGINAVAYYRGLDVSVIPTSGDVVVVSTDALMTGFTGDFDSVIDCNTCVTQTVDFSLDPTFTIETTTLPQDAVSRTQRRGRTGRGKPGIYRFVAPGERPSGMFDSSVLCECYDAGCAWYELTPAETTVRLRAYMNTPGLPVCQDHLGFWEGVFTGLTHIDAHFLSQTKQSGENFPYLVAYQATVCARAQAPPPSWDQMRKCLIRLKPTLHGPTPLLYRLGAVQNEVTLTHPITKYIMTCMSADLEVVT
UniProt P27958, 1658-1711 partner limits assumed: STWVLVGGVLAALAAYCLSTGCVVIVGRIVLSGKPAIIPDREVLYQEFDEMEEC

Each structure is given as a SMILES string.

This assay has as its target Recombinant heterodimeric HCV NS3/NS4A protease (strain 1a) (Hepatitis C virus genotype 1a, UniProt P27958). The assay is described as follows: Spectrophotometric assay for HCV serine protease inhibitory activity (chromogenic ester substrates). The format is biochemical. The settings on record: read-out: Ki* Range; Table 3A; class symbols.

On to `CCCC[C@H](NC(=O)[C@@H]1[C@@H]2[C@H](CN1C(=O)[C@@H](NC(=O)NC1([C@H]3CCCS3(=O)=O)CCCCC1)C(C)(C)C)C2(C)C)C(=O)C(=O)NCCC`, for which the Ki – broadly, the equilibrium dissociation constant of an inhibitor or competing ligand from its target – was < 75 nM.
Regarding `C=CCNC(=O)C(=O)[C@H](CC1CC1)NC(=O)[C@@H]1[C@@H]2[C@H](CN1C(=O)[C@@H](NC(=O)NC1([C@@H]3CCCS3(=O)=O)CCCCC1)C1CCCCC1)C2(C)C`, the Ki was < 75 nM.
